Anti-infective test results gathered from many reports (values: NIAID ChemDB through PubChem).

Shared fields: whole-cell or culture tests; species: Herpes simplex virus 1; method: cytopathic effect; endpoint: EC50

An empty or dashed field is not shown.

structure,cells,strain,result
Nc1nc2c(ncn2COCCO)c(=O)[nH]1,PRK,KOS,0.06 µg/mL
O=c1[nH]c(=O)n([C@H]2C[C@H](O)[C@@H](CO)O2)cc1/C=C/Br,VERO,KOS,0.1 µg/mL
CCCc1cn([C@H]2C[C@H](O)[C@@H](CO)O2)c(=O)[nH]c1=O,PRK,KOS F McIntyre,0.8 µg/mL
[N-]=[N+]=NC(CBr)c1cc([C@H]2C[C@H](O)[C@@H](CO)O2)c(F)cc1F,E6SM,VMW1837 (TK-),>400 µg/mL
O=c1[nH]c(=O)n([C@H]2C[C@H](O)[C@@H](CO)O2)cc1C(F)(F)F,PRK,KOS F McIntyre,0.6 µg/mL
OC[C@H]1O[C@H](c2cc(I)c(F)cc2F)C[C@@H]1O,E6SM,McIntyre,>400 µg/mL
O=c1c2ncn(COC(CO)CO)c2nc2[nH]c(-c3ccc(C(F)(F)F)cc3)cn12,HEL,F,0.384 µg/mL
CCc1cn([C@H]2C[C@H](O)[C@@H](CO)O2)c(N)nc1=O,PRK,VMW1837 (TK-),>400 µg/mL
OC[C@H]1O[C@@H](c2cc(C(F)(F)F)c(F)cc2F)C[C@@H]1O,E6SM,KOS,>400 µg/mL
O=c1[nH]c(=O)n(C2CC(O)C(CO)O2)cc1CCCCl,PRK,McIntyre,0.2 µg/mL
O=c1[nH]c(=O)n([C@H]2C[C@H](O)[C@@H](COP(=O)(O)O)O2)cc1I,PRK,McIntyre,0.2 µg/mL
Nc1nc2c(ncn2COCCO)c(=O)[nH]1,HEL,KOS,0.2 µg/mL
CC=NC(=N)c1nc(-c2ccc(OC)cc2)n(COCCO)n1,E6SM,KOS,>200 µg/mL
C#Cc1cn([C@H]2C[C@H](O)[C@@H](CO)O2)c(=O)[nH]c1=O,HSF,KOS,0.2 µg/mL
CO[C@H](CO)[C@@H](O)CCn1cnc2c(N)ncnc21,E6SM,VMW1837 (TK-),>400 µg/mL
O=Cc1cn([C@H]2C[C@H](O)[C@@H](CO)O2)c(=O)[nH]c1=O,PRK,F,2 µg/mL
OC[C@H]1O[C@@H](c2cc(I)c(F)cc2F)C[C@@H]1O,E6SM,KOS,>400 µg/mL
[N-]=[N+]=NCc1cn([C@H]2C[C@H](O)[C@@H](CO)O2)c(=O)[nH]c1=O,PRK,VEW257,2 µg/mL
CCCc1cn([C@H]2C[C@H](O)[C@@H](COP(=O)(O)O)O2)c(=O)[nH]c1=O,HEP-2,KOS,0.8 µg/mL
O=c1c2ncn(COCCO)c2nc2[nH]c(-c3ccccc3)c(Cc3ccccc3)n12,HEL,F,9.6 µg/mL
Nc1nc2c(ncn2COCCO)c(=O)[nH]1,PRK,KOS F McIntyre,0.04 µg/mL
CCc1cc([C@H]2C[C@H](O)[C@@H](CO)O2)c(F)cc1F,E6SM,McIntyre,>400 µg/mL
CC=NC(=N)c1nc(-c2ccccc2)n(COCCO)n1,E6SM,VMW 1837,>40 µg/mL
Nc1nc(=O)n([C@@H]2O[C@H](CO)[C@@H](O)[C@@H]2F)cc1I,VERO,KOS,0.2 µg/mL
Nc1nc2c(ncn2COCCO)c(=O)[nH]1,HFF,T18327-1 acyclovir-susceptible,0.5 µg/mL
C=C(N=CC)c1nc(-c2ccccc2)n([C@@H]2O[C@H](CO)[C@@H](O)[C@H]2O)n1,E6SM,VMW 1837,>200 µg/mL
O=c1c2ncn(COCCO)c2nc2[nH]c(-c3ccc(F)cc3)cn12,HEL,McIntyre,>16 µg/mL
O=c1[nH]c(=O)n([C@H]2C[C@H](O)[C@@H](CO)O2)cc1I,HeLa,KOS,0.5 µg/mL
O=c1[nH]c(=O)n([C@H]2C[C@H](O)[C@@H](CO)O2)cc1I,E6SM,-,0.2 µg/mL
C=C(N=CC)c1nc(-c2cccc(OC)c2)n(C2O[C@H](CO)[C@@H](O)[C@H](O)[C@H]2O)n1,E6SM,VMW 1837,300 µg/mL
O=c1[nH]c(=O)n([C@H]2C[C@H](O)[C@@H](CO)O2)cc1/C=C/Br,PRK,F,0.02 µg/mL
Nc1ncnc2c1ncn2CC[C@H](O)CCO,E6SM,F,>400 µg/mL
O=c1c2ncn(COC(CO)CO)c2nc2[nH]c(-c3ccc(F)cc3)cn12,HEL,KOS,0.64 µg/mL
O=c1[nH]c(=O)n([C@H]2C[C@H](O)[C@@H](CO)O2)cc1I,PRK,VEW257,0.15 µg/mL
O=c1[nH]c(=O)n([C@H]2C[C@H](O)[C@@H](COP(=O)([O-])OP(=O)([O-])OC[C@@H]3OC(O)[C@H](O)[C@H](O)[C@H]3O)O2)cc1I,PRK,McIntyre,0.4 µg/mL
CCCc1cn([C@H]2C[C@H](O)[C@@H](CO)O2)c(=O)[nH]c1=O,HEP-2,KOS,0.15 µg/mL
Nc1ccn([C@@H]2O[C@H](CO)[C@@H](O)[C@@H]2O)c(=O)n1,BSC-1,KOS,0.1 µg/mL
CO[C@H](CO)[C@@H](O)CCn1cc(C)c(=O)[nH]c1=O,E6SM,McIntyre,>400 µg/mL
Nc1ncnc2c1ncn2[C@@H]1O[C@H](CO)[C@@H](O)[C@@H]1O,HEL,KOS,50 µg/mL
Nc1ccn(CC[C@H](O)CCO)c(=O)n1,E6SM,B2006 (TK-),>400 µg/mL
OC[C@H]1O[C@@H](c2cc(Cl)c(F)cc2F)C[C@@H]1O,E6SM,VMW 1837,>400 µg/mL
[N-]=[N+]=N[C@@H]1[C@@H](OP(=O)(O)OC[C@H]2O[C@@H](n3cnc4c(N)ncnc43)[C@H](OP(=O)(O)OCCOCn3cnc4c(=O)[nH]c(N)nc43)[C@H]2N=[N+]=[N-])[C@H](n2cnc3c(N)ncnc32)O[C@@H]1CO,PRK,KOS,0.7 µg/mL
O=c1[nH]c(=O)n([C@H]2C[C@H](O)[C@@H](CO)O2)cc1CCCl,PRK,McIntyre,0.15 µg/mL
CN(C)Cc1cn([C@H]2C[C@H](O)[C@@H](CO)O2)c(=O)[nH]c1=O,PRK,KOS,>200 µg/mL
Nc1nc2c(ncn2COCCO)c(=O)[nH]1,PRK,5 (PAA-resistant),2 µg/mL
Nc1ncnc2c1ncn2[C@@H]1O[C@H](CO)[C@@H](O)[C@H]1OP(=O)(O)OC[C@H]1O[C@@H](n2cnc3c(N)ncnc32)[C@H](OP(=O)(O)OC[C@H]2O[C@@H](n3cc(/C=C/Br)c(=O)[nH]c3=O)C[C@@H]2O)[C@@H]1O,PRK,B2006 (TK-),>100 µg/mL
O=c1[nH]c(=O)n([C@H]2C[C@H](O)[C@@H](CO)O2)cc1/C=C/Br,PRK,F,0.02 µg/mL
OC[C@H]1O[C@@H](c2cc(/C=C/I)c(F)cc2F)C[C@@H]1O,E6SM,McIntyre,48 µg/mL
Nc1ncnc2c1ncn2[C@@H]1O[C@H](COP(=O)(O)O[C@@H]2[C@H](O)[C@@H](COP(=O)(O)O[C@@H]3[C@H](O)[C@@H](COP(=O)(O)OP(=O)(O)OP(=O)(O)O)O[C@H]3n3cnc4c(N)ncnc43)O[C@H]2n2cnc3c(N)ncnc32)[C@@H](O)[C@H]1O,PRK,-,>400 µg/mL

A second listing of 5 rows from above:

structure,cells,strain,result
O=c1[nH]c(=O)n([C@H]2C[C@H](O)[C@@H](CO)O2)cc1C(F)(F)F,PRK,KOS F McIntyre,0.6 µg/mL
CO[C@H](CO)[C@@H](O)CCn1cc(C)c(=O)[nH]c1=O,E6SM,McIntyre,>400 µg/mL
CC=NC(=N)c1nc(-c2ccc(OC)cc2)n(COCCO)n1,E6SM,KOS,>200 µg/mL
CC=NC(=N)c1nc(-c2ccccc2)n(COCCO)n1,E6SM,VMW 1837,>40 µg/mL
O=c1[nH]c(=O)n([C@H]2C[C@H](O)[C@@H](CO)O2)cc1I,E6SM,-,0.2 µg/mL

ECn is the concentration giving n% inhibition of infection, replication or growth. Conditions beyond the fields shown may differ between rows.